Pooled drug test results. Numbers come from NIAID ChemDB, via PubChem.

All rows: growth or infection tests; agent: Mycobacterium tuberculosis

Percent inhibition refers to the dose given; in toxicity tests it is the harm to the cells.

SMILES | strain or isolate | mutations | read-out | cell line | read by | tested at | value
COc1cc(-c2nnc(SC)o2)cc(OC)c1OC | H37Rv |  | inhibition |  | BACTEC | 6.25 µg/mL | 20%
CCOC(=O)c1ccc(NC(=O)/C=C\C(=O)O)cc1O | H37Rv |  | MIC |  |  |  | >20 µg/mL
CCCCCCCCCCCCCCCCCCOS(=O)(=O)c1ccc(C)cc1 | H37Rv |  | MIC |  |  |  | >100 µg/mL
O=C(CN1CCN(c2cc3c(cc2F)c(=O)c(C(=O)O)cn3C2CC2)CC1)c1ccccc1 | H37Rv |  | inhibition | VERO |  | 3.68 µg/mL | 90%
CC[C@H]1OC(=O)[C@H](C)[C@@H](O[C@H]2C[C@@](C)(OC)[C@@H](O)[C@H](C)O2)[C@H](C)[C@@H](O[C@@H]2O[C@H](C)C[C@H](N(C)C)[C@H]2O)[C@](C)(O)C[C@@H](C)CN(C)[C@H](C)[C@@H](O)[C@]1(C)O | 30 isolates/HIV+ |  | MIC90 |  |  |  | >8 µg/mL
CN(C)CC=C(c1ccccc1)c1ccc(-c2ccc(Br)cc2)cc1 | H37Ra |  | MIC |  |  |  | 20 µg/mL
O=C(O)c1ccccc1N=Nc1ccc(NCCO)cc1 | H37Rv |  | MIC |  |  |  | 100 µg/mL
O=c1ccc2c(N3CCCCC3)cc(N3CCOCC3)nc2[nH]1 | H37Rv |  | EC50 |  | BACTEC |  | >6.25 µg/mL
NC(=O)c1cnccn1 | ATCC 35828 |  | MIC |  |  |  | >900 µg/mL
Cc1ccc(Nc2nc3c(=O)n(C)c(=O)n(C)c3nc2Nc2ccc(C)cc2)cc1 | H37Rv |  | inhibition |  | BACTEC | 12.5 µg/mL | 12%
Cc1cccc(OC/C(N)=N\NC(=O)c2ccncc2)c1 | ATCC 35820 (streptomycin-resistant) |  | MIC |  |  |  | 6.25 µg/mL
Cc1nccn1CC1(c2ccc(Cl)cc2)OCCO1 | H37Rv |  | MIC bound |  | resazurin |  | >6.25 µg/mL
CO[C@H]1/C=C/O[C@@]2(C)Oc3c(C)c(O)c4c(O)c(c(/C=N/N5CCN(C)CC5)c(O)c4c3C2=O)NC(=O)/C(C)=C\C=C\[C@H](C)[C@H](O)[C@@H](C)[C@@H](O)[C@@H](C)[C@H](OC(C)=O)[C@@H]1C | CHUV80045776 | katG mutant isoniazid resistant | MIC |  | resazurin / absorbance |  | 0.001 µg/mL
COC(=O)c1c([N+](=O)[O-])ccc2oc3ccc([N+](=O)[O-])cc3c(=O)c12 | H37Rv |  | MIC |  |  |  | >32 µg/mL
CCN(CC)C(=S)SCCOCCSC(=S)N(CC)CC | H37Rv |  | MIC |  | BACTEC |  | 128 µg/mL
COc1ccc(-c2nnc(SCC3(c4cccc(OC)c4)OCCO3)o2)cc1 | H37Rv |  | inhibition |  | BACTEC | 6.25 µg/mL | 0%
N#Cc1cccc(N)c1 | H37Rv |  | MIC |  |  |  | >100 µg/mL
CO[C@H]1/C=C/O[C@@]2(C)Oc3c(C)c(O)c4c(O)c(c5c(c4c3C2=O)NC2(CCN(CC(C)C)CC2)N=5)=NC(=O)/C(C)=C\C=C\[C@H](C)[C@H](O)[C@@H](C)[C@@H](O)[C@@H](C)[C@H](OC(C)=O)[C@@H]1C | 30 isolates/HIV+ |  | MIC50 |  |  |  | 0.25 µg/mL
Clc1c(Cl)c(Cl)c(Cl)c(Cl)c1Cl | H37Rv |  | MIC |  |  |  | >100 µg/mL
COC(=O)c1ccc(NC(=O)/C=C\C(=O)O)cc1O | H37Rv |  | MIC |  |  |  | >20 µg/mL
CN(C)C/C=C(\c1ccc(N)cc1)c1ccc(-c2ccc(Br)cc2)cc1 | ALI 329 |  | MIC |  |  |  | ≤5 µg/mL
NNC(=O)Cc1ccc2ccccc2c1 | H37Rv |  | MIC bound |  | BACTEC |  | >12.5 µg/mL
CC(Oc1ccccc1Cl)C(=O)O | H37Rv |  | MIC |  |  |  | >100 µg/mL
Cc1cccc(/C=N/Nc2ccc3ccccc3n2)n1 | H37Rv |  | inhibition |  | BACTEC | 12.5 µg/mL | 27%
O=C(N/N=C/c1ccc(Cl)cc1)c1ccc(F)cc1 | H37Rv |  | EC50 |  |  |  | >6.25 µg/mL
CO[C@H]1/C=C/O[C@@]2(C)Oc3c(C)c(O)c4c(O)c(c(/C=N/N5CCN(C)CC5)c(O)c4c3C2=O)NC(=O)/C(C)=C\C=C\[C@H](C)[C@H](O)[C@@H](C)[C@@H](O)[C@@H](C)[C@H](OC(C)=O)[C@@H]1C | Isolate TN6515 |  | MIC |  |  |  | 0.02 µg/mL
CCOC(=O)c1cnc2c(ccc3ncccc32)c1OCC | H37Rv |  | MIC bound |  | BACTEC |  | >12.5 µg/mL
COc1cc(Nc2nc3ccccc3o2)ccc1[N+](=O)[O-] | H37Rv |  | MIC |  |  |  | >100 µg/mL
Cc1ccccc1OC/C(N)=N\NC(=O)c1ccncc1 | ATCC 35820 (streptomycin-resistant) |  | MIC |  |  |  | 25 µg/mL
COc1cccc2c1cc([N+](=O)[O-])c1c(C(=O)O)cc3c(c12)OCO3 | H37Rv |  | inhibition |  | resazurin | 6.25 µg/mL | -1%
Nc1cccc2c1oc1c(N)cccc12 | H37Rv |  | MIC |  |  |  | 25 µg/mL
O=C(N/N=C/c1ccccc1O)c1ccc(F)cc1 | H37Rv |  | MIC |  |  |  | >6.25 µg/mL
Nc1nc(-c2ccccc2)c(Sc2nnc(-c3ccccc3)o2)s1 | H37Rv |  | inhibition |  | BACTEC | 6.25 µg/mL | 55%
S=C1C(=Nc2ccccc2)N(c2ccccc2)/C(=N\c2cccc[n+]2Cc2ccccc2)N1c1ccccc1.[Br-] | H37Rv |  | MIC bound |  | BACTEC |  | >12.5 µg/mL
COc1c(N2CC[C@@H](C(C)(C)N)C2)c(F)cc2c(=O)c3c(=O)[nH]sc3n(C3CC3)c12 | Pan-susceptible clinical isolate 5 |  | MIC |  |  |  | 0.06 µg/mL
Cl.NCc1cccs1 | H37Rv |  | MIC |  |  |  | 1600 µg/mL
COc1cc(-c2nnc(SCC(=O)c3ccc(Cl)cc3)o2)cc(OC)c1OC | H37Rv |  | inhibition |  | BACTEC | 6.25 µg/mL | 27%
NC[C@H]1O[C@H](O[C@H]2[C@H](O)[C@@H](O[C@H]3O[C@H](CO)[C@@H](O)[C@H](N)[C@H]3O)[C@H](N)C[C@@H]2N)[C@H](O)[C@@H](O)[C@@H]1O | Isolate TN6515 |  | MIC |  |  |  | 1.5 µg/mL
O=C(CCl)Nc1c(Cl)cc(Cl)cc1Cl | H37Rv |  | MIC |  |  |  | 100 µg/mL
Cc1nc(N)sc1C(=O)Nc1ncn[nH]1 | H37Rv |  | inhibition |  | BACTEC | 12.5 µg/mL | 0%
CC(=O)Oc1ccc2ncccc2c1 | H37Rv |  | MIC |  |  |  | 25 µg/mL
Cc1ccccc1OC(=O)c1ccc(NC(=O)c2ccccc2C(=O)O)cc1O | H37Rv |  | MIC |  |  |  | 0.25 µg/mL
C[N+](C)(CCCCCC[N+](C)(C)CC(=O)NC(N)=O)CC(=O)NC(N)=O.[Cl-].[Cl-] | H37Rv |  | MIC bound |  | BACTEC |  | >12.5 µg/mL
O=C(N/N=C/c1ccccc1F)c1ccc(F)cc1 | H37Rv |  | inhibition |  |  | 6.25 µg/mL | 35%
Nc1nnc2nc(CC(=O)/C=C/c3ccccc3)c(=O)[nH]n12 | H37Rv |  | MIC bound |  | BACTEC |  | >12.5 µg/mL
CN[C@@H]1[C@@H](O)[C@@H](O[C@@H]2[C@@H](O)[C@H](O[C@H]3O[C@H](CN)CC[C@H]3N)[C@@H](N)C[C@H]2N)OC[C@]1(C)O | H37Rv |  | MIC |  |  |  | >32 µg/mL
O=C1c2c(O)ccc(O)c2C(=O)c2c(NCCNC(=O)[C@@H](O)[C@H](O)[C@@H](O)[C@@H](O)CO)ccc(NCCNC(=O)[C@@H](O)[C@H](O)[C@@H](O)[C@@H](O)CO)c21 | H37Rv |  | inhibition |  |  | 6.25 µg/mL | -1%
O=c1[nH]c2nc(N3CCNCC3)ccc2cc1-c1ccccc1 | H37Rv |  | EC50 |  | BACTEC |  | >6.25 µg/mL
CCC1CN(c2c(F)cc3c(=O)c(C(=O)O)cn(C4CC4)c3c2OC)CCN1 | Isolate TN2156 |  | MIC |  |  |  | 0.3 µg/mL
Cc1ccccc1N=Nc1sc(N)nc1-c1ccccc1 | H37Rv |  | inhibition |  | BACTEC | 6.25 µg/mL | 79%
c1cc2c(N3CCCCC3)cc(N3CCOCC3)nc2nc1N1CCOCC1 | H37Rv |  | EC50 |  | BACTEC |  | >6.25 µg/mL
Cc1c([N+](=O)[O-])cc2c(=O)c3cc([N+](=O)[O-])ccc3oc2c1C | H37Rv |  | MIC |  |  |  | >8 µg/mL
O=C(c1ccccc1)c1cccc(Br)c1 | H37Rv |  | MIC |  |  |  | 25 µg/mL
OC(c1cc(-c2ccc(C(F)(F)F)cc2)nc(C(F)(F)F)c1)C1CCCCN1 | H37Rv |  | MIC |  | resazurin |  | 6.25 µg/mL
CCn1cc(C(=O)O)c(=O)c2cc(F)c(N3CCN(CC(=O)c4ccc(Br)cc4)CC3)cc21 | H37Rv |  | inhibition | VERO |  | 6.25 µg/mL | 95%
CC(=O)O.COC(=O)C1C(O)C(C)C(O)C(C)/C=C\C=C(\C)C(=O)Nc2c(C)c(OC(C)=O)c3c(c2O)C(=O)C(C)=C2OCOC(=C23)/C(C)=C\C(C)(O)C(O)C(C)C1O | H37Rv |  | inhibition |  | BACTEC | 12.5 µg/mL | 11%
NC(=O)c1cnccn1 | Isolate 9721 monodrug-resistant |  | MIC |  |  |  | >300 µg/mL
Nc1ccc(O)c(-c2ccccc2)c1 | H37Rv |  | MIC |  |  |  | >100 µg/mL
CS1(C)=NC(=O)C2=C(N=1)c1ccccc1S2(=O)=O | H37Rv |  | MIC bound |  | resazurin |  | >6.25 µg/mL
COC(=O)c1cccc2c(=O)c3ccccc3oc12 | H37Rv |  | MIC |  |  |  | >32 µg/mL
CC(O)C(NC(=O)C(CCCN)NC(=O)C(CC(O)CN=C(N)N)NC(=O)C(N)CCCN=C(N)N)C(=O)NC(CCCN)C(=O)NC(CC(O)CN=C(N)N)C(=O)NC(Cc1ccc(O)cc1)C(=O)O | H37Rv |  | inhibition |  | BACTEC | 12.5 µg/mL | 4%
O=C(O)c1ccccc1I | H37Rv |  | MIC |  |  |  | 100 µg/mL
CCCOC(=O)c1ccc(N)cc1O | H37Rv |  | MIC |  |  |  | 10 µg/mL
O=C(O)c1cn(C2CC2)c2cc(N3CCN(C/C(=N/O)c4ccc(F)cc4)CC3)c(F)cc2c1=O | H37Rv |  | MIC | VERO |  |  | 3.13 µg/mL
N#Cc1cccc2oc3ccccc3c(=O)c12 | H37Rv |  | MIC |  |  |  | >16 µg/mL
O=C(O)CCC(=O)Nc1ccc(C(=O)Oc2ccccc2)c(O)c1 | H37Rv |  | MIC |  |  |  | 0.5 µg/mL
CN(C)C/C=C(/c1ccc(Br)cc1)c1ccc(-c2ccc(Br)cc2)cc1 | ALI 452 |  | MIC |  |  |  | ≤4 µg/mL
COc1cc(-c2nnc(SCC(=O)c3ccc(Br)cc3)o2)cc(OC)c1OC | H37Rv |  | inhibition |  | BACTEC | 6.25 µg/mL | 22%
O=C(CN1CCN(c2cc3c(cc2F)c(=O)c(C(=O)O)cn3C2CC2)CC1)c1ccc(F)cc1 | H37Rv |  | inhibition | VERO |  | 6.25 µg/mL | 102%
Nc1c(Br)cc2c(c1Br)C(=O)c1ccccc1C2=O | H37Rv |  | MIC |  |  |  | >100 µg/mL
N/C(COc1ccc([N+](=O)[O-])cc1)=N/NC(=O)c1ccncc1 | ATCC 35838 (rifampin-resistant) |  | MIC |  |  |  | 12.5 µg/mL
COc1cc2c(cc1C(=O)O)oc1ccccc12 | H37Rv |  | MIC |  |  |  | 100 µg/mL
CN(C)C/C=C(\c1ccc(Cl)cc1)c1ccc(-c2ccc(Br)cc2)cc1 | ALI 282 |  | MIC |  |  |  | ≤5 µg/mL
Cc1ccc2c(N3CCCCC3)c(Cc3ccccc3)c(N3CCCCC3)nc2n1 | H37Rv |  | inhibition |  | BACTEC | 6.25 µg/mL | 96%
C/C(=N/O)C(C)C | H37Rv |  | MIC |  |  |  | >100 µg/mL
Cc1cccc(/C=N/Nc2cc(C)c3ccccc3n2)n1 | H37Rv |  | MIC |  |  |  | 12.5 µg/mL
CCOC(=O)C1CSC(CCCOCc2ccccc2)/C1=N/O | H37Rv |  | MIC |  |  |  | >100 µg/mL
NNC(=O)c1csnn1 | H37Rv |  | MIC bound |  | BACTEC |  | >12.5 µg/mL
Cc1ccc(S(N)(=O)=O)cc1 | H37Rv |  | MIC |  |  |  | >100 µg/mL
CN(C)CC=C(c1ccc(Br)cc1)c1ccc(-c2ccc(Br)cc2)cc1 | H37Rv |  | MIC |  |  |  | 8.5 µg/mL
O=C(N/N=C/c1ccc([N+](=O)[O-])s1)c1ccccc1 | H37Rv |  | MIC |  |  |  | <6.25 µg/mL
Cc1ccc2ccccc2n1 | H37Rv |  | MIC |  |  |  | >100 µg/mL
O=c1[nH][nH]c(=O)c2c1nc(SCc1ccc(Cl)c(Cl)c1)n2Cc1ccccc1 | H37Rv |  | inhibition |  | BACTEC | 12.5 µg/mL | 0%
Cc1ccc2oc3ccccc3c(=O)c2c1 | H37Rv |  | MIC |  |  |  | >32 µg/mL
O=C(O)c1cn(C2CC2)c2cc(N3CCN(C/C(=N/O)c4ccc(Br)cc4)CC3)c(F)cc2c1=O | H37Rv |  | EC50 |  |  |  | <6.25 µg/mL

A second listing of 6 rows from above:

| SMILES | strain or isolate | mutations | read-out | cell line | read by | tested at | value |
|---|---|---|---|---|---|---|---|
| Cc1ccc(S(N)(=O)=O)cc1 | H37Rv |  | MIC |  |  |  | >100 µg/mL |
| Cl.NCc1cccs1 | H37Rv |  | MIC |  |  |  | 1600 µg/mL |
| Cc1nccn1CC1(c2ccc(Cl)cc2)OCCO1 | H37Rv |  | MIC bound |  | resazurin |  | >6.25 µg/mL |
| Cc1ccc2c(N3CCCCC3)c(Cc3ccccc3)c(N3CCCCC3)nc2n1 | H37Rv |  | inhibition |  | BACTEC | 6.25 µg/mL | 96% |
| O=C(O)c1cn(C2CC2)c2cc(N3CCN(C/C(=N/O)c4ccc(F)cc4)CC3)c(F)cc2c1=O | H37Rv |  | MIC | VERO |  |  | 3.13 µg/mL |
| COC(=O)c1c([N+](=O)[O-])ccc2oc3ccc([N+](=O)[O-])cc3c(=O)c12 | H37Rv |  | MIC |  |  |  | >32 µg/mL |

A number after MIC or MFC names an inhibition level or a share of isolates. ECn is the concentration giving n% inhibition of infection, replication or growth. Lines come from different laboratories, so protocols vary. An empty or dashed field is not shown. MIC bound: limit read from a one-dose screen.